{
  "source": "the supplement of paper PMC11997997",
  "data": [
    {"system": "murine bone marrow-derived macrophages", "assay": "area under cytotoxicity dose-response curve (AUC (% cytotoxicity x dose, relative)); higher = more cytotoxic", "settings": "duration: 6 days; dose range: 0.13-80 uM, 8 points", "protocol": "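Primary murine bone marrow-derived macrophages in 384-well plates were treated with an 8-point 2.5-fold dose response (80 to 0.13 uM) for 6 days at 37 C. Viability was read by CellTiter-Glo, and % cytotoxicity was taken relative to DMSO and 4% Triton X-100. The AUC of the dose-response was computed in Prism.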", "values": [
      {"molecule": "CN(C/C=C/c1ccccc1)Cc1cccc2ccccc12.Cl", "area under cytotoxicity dose-response curve": 91.3},
      {"molecule": "C[CH2][Hg][S]c1ccccc1C(=O)[O-].[Na+]", "area under cytotoxicity dose-response curve": 190},
      {"molecule": "CCOc1ccc(NC(=S)Nc2ccc(OCC)cc2)cc1", "area under cytotoxicity dose-response curve": "< 0"},
      {"molecule": "Clc1cc2cccnc2c2ncccc12", "area under cytotoxicity dose-response curve": 20.7}
    ]}
  ]
}
